Reference: paper PMC4778845, “Three Recombinant Engineered Antibodies against Recombinant Tags with High Affinity and Specificity” (PLoS ONE, 2016)

How the values were obtained:
[1] = biological target: PCDH15-THAP (mouse protocadherin-15 with tandem HAP inserted between EC domains 10 and 11) (mouse); test: far-Western, overlay or dot blot
[2] = biological target: PCDH15-HAP (mouse protocadherin-15 with a single HAP inserted between EC domains 10 and 11) (mouse); test: immunostaining of cells or tissue
[3] = biological target: PCDH15-THAP (mouse protocadherin-15 with tandem HAP inserted between EC domains 10 and 11) (mouse); test: immunostaining of cells or tissue
[4] = biological target: T1, anti-THAP (alpha-bungarotoxin fused to human Fc, homodimer with two BTX arms) (Bungarus multicinctus, UniProt P60615 22-95); test: SPR
T1 construct: source: HEK293f, transiently transfected, secreted, purified (rProtein A HiTrap)

[5] = biological target: T2, anti-THAP (α-bungarotoxin fused to human Fc, homodimeric) (Bungarus multicinctus, UniProt P60615 22-95, biotin (EZ-Link Hydrazide-PEG4-Biotin), only in the single-molecule pull-down); test: SPR
T2 construct: source: HEK293f, transiently transfected, secreted, purified (rProtein A HiTrap)

Work on “anti-THAP (α-bungarotoxin fused to human Fc, homodimeric) (from UniProt P60615 22-95) (Fc fusion)” yielded an immunoblot signal, fold of that of PCDH15-HAP [1] of 30 fold, a Kd [2] of 0.4 nM and a Kd [3] of 0.07 nM.

With “biotinylated α-bungarotoxin (from UniProt P60615 22-95) (natural protein)” the Kd [3] was 10 nM.

Work on WRYYESSLEPYPD [high affinity peptide (HAP), listing 1 of 2 here] yielded a Kd [4] of 1.9 nM, a koff [4] of 0.00095 s⁻¹ and a kon [4] of 490000 M⁻¹ s⁻¹.

Work on WRYYESSLEPYPD [high affinity peptide (HAP), listing 2 of 2 here] yielded a Kd [5] of roughly 2 nM.
